Assay results reported in ChEMBL document CHEMBL1275581, “Detection of the pandemic O25-ST131 human virulent Escherichia coli CTX-M-15-producing clone harboring the qnrB2 and aac(6')-Ib-cr genes in a dog” (2009).

Test system: Escherichia coli
Conditions: J53

## GENTAMICIN
  MIC: 0.5 µg/mL
